# Patent US11746116B2, “Antibiotic resistance breakers” (KING'S COLLEGE LONDON, priority 2017, dated 2023)
# Assay: Body weight and clinical observations in the murine thigh infection study
# Details: individual mice, day −1 (before treatment)
smiles,measurement,setting,value
C[C@H]1COc2c(N3CC[C@@H](Nc4ncccn4)C3)c(F)cc3c(=O)c(C(=O)O)cn1c23,"Bodyweight raw data, day −1",20 mg/kg group,29.1
same,"Bodyweight raw data, day −1",50 mg/kg group,29.1
